# From PubChem BioAssay AID651724 (National Center for Advancing Translational Sciences (NCATS), 2012)
# This is a selection; strong and weak results do not stand in their true shares. Some structures show a salt or complex split into parts, the way the source records it. Activity calls are given as the source filed them. No stated cut-off is given here; in the data, active means activity change below about -65%; inconclusive means mostly about -30% to -63%; inactive means weaker than that.
# System: CtBP / adenovirus E1A interaction (AlphaScreen)
# Assay: qHTS Assay for Inhibitors of the CtBP/E1A Interaction
# Conditions: AlphaScreen GST-E1A/His-CtBP binding, 1536-well; active compounds read low
# Description: Carboxyl-terminal binding protein (CtBP) is a co-repressor for many transcription factors. […] Our studies have shown that CtBP is overexpressed in multiple human cancers, including lung, breast, and head and neck cancers. In particular, it is over-expressed in 50% of primary lung cancer and 90% of metastatic lesions. CtBP suppresses epithelial-specific genes as well as genes critical for apoptosis, providing the underlying molecular mechanism for its role in tumorigenesis. […] Based on the above data, we hypothesize that 1) CtBP suppresses the pro-apoptotic and epithelial genes, therefore overexpressed CtBP in human cancer cells increases EMT and cancer survival; 2) decreasing CtBP's function represents a targeted therapy for lung cancer and potentially multiple cancer types. As a co-repressor, CtBP binds to E1A and other transcription factors through a conserved peptide motif to carry out its action. Inhibiting this interaction using small molecules can potentially serve as effective cancer therapeutics.
# To this end, we have developed a homogenous AlphaScreen assay targeting the CtBP/E1A interaction. We performed a large scale HTS of the Molecular Libraries Small Molecule Repository (MLSMR) to identify inhibitors of the CtBP/E1A interaction as potential anti-cancer therapeutics. Compounds identified can also be used as chemical probes to better understand the biological functions of CtBP.
# NIH Chemical Genomics Center [NCGC]
# NIH Molecular Libraries Probe Centers Network [MLPCN]
# Assay Submitter (PI): Rui Zhao, University of Colorado Denver
# The first step of the 5uL AlphaScreen assay is to dispense assay buffer (50 mM Tris, pH 8.0, 300 mM NaCl, 0.05% BSA, 0.02% Tween 20, 1 mM TCEP) into a Greiner 1536 white solid bottom microtiter plate (789175-F). Five microliters is added to Column 1, 4 uL is added to Column 2 and 3 uL is added to Columns 3 through 48. A 5X protein solution (125 nM GST-E1A protein + 125 nM His-tagged CtBP protein) is mixed and 1 uL is dispensed to Columns 3-48. Using a 1536 pintool, 23 nL of compound is transferred to the assay plate and the plate is incubated with a lid at 37 deg C in the dark for two hours. A solution of 5X AlphaScreen beads is mixed (50 ug/mL Glutathione linked donor beads + Nickel chelated acceptor beads) and 1 uL is dispensed to Columns 2-48. The assay plate is incubated for one hour, with a lid, at 37 deg C in the dark. The plate is read using a Perkin Elmer Envision using an AlphaScreen protocol.
# On the % scale 0 is the no-effect control and ±100 the full control effect.
row,SMILES,activity change
1,O=C(OC1CN2CCC1CC2)c1ccc([N+](=O)[O-])cc1 (stereo not given),inactive: 6.65%
2,CN1CCC(Nc2cccc(F)c2)CC1,inactive: -12.9%
3,O=C(NCC1(N2CCCCC2)CCCCC1)c1cncc(Br)c1,inactive: 3.83%
4,COc1ccc2c(c1O)-c1c(O)c(OC)cc3c1[C@H](C2)[N+](C)(C)CC3.O=[N+]([O-])c1cc([N+](=O)[O-])c([O-])c([N+](=O)[O-])c1[O-],inactive: 0.392%
5,COc1ccc(C(c2nnnn2C2CCCC2)N2CCC(n3c(=O)[nH]c4ccccc43)CC2)cc1 (stereo not given),inactive: -7.92%
6,O=[N+]([O-])c1cc([N+](=O)[O-])c(Nc2ccc(Cl)cc2)c([N+](=O)[O-])c1,inactive: -11.7%
7,CCCOc1ccc(C(=O)NCC2(N(C)C)CCCCC2)cc1OC,inactive: 0.954%
8,Cc1ccc(C(=O)NCC2(N(C)C)CCCCC2)o1,inactive: 7.98%
9,O=C(NCC1(N2CCCCC2)CCCCC1)c1ccc(OC(F)F)cc1,inactive: 5.74%
10,CC(C)(C)n1nnnc1C(c1ccccc1OC(F)(F)F)N1CCC(n2c(=O)[nH]c3ccccc32)CC1 (stereo not given),inactive: -4.63%
11,O=c1[nH]c2ccccc2n1C1CCN(C(c2ccccc2OC(F)(F)F)c2nnnn2C2CCCC2)CC1 (stereo not given),inactive: -1.52%
12,N#CC1(Nc2ccccc2)CCN(CCc2ccccc2)CC1,inactive: 0%
13,CCN1CCC(Nc2ccc(Cl)cc2)CC1,inactive: 1.52%
14,O=C(NCC1(N2CCCCC2)CCCCC1)c1cccc([N+](=O)[O-])c1,inactive: -13.5%
15,CSc1ccc(C(=O)NCC2(N3CCOCC3)CCCCC2)cc1,inactive: -7.2%
16,O=[N+]([O-])c1cc([N+](=O)[O-])c(NCC2CCS(=O)(=O)C2)c([N+](=O)[O-])c1 (stereo not given),inactive: -20.1%
17,O=C(NCC1(N2CCCCC2)CCCCC1)c1cccc(C(F)(F)F)c1,inactive: 3.39%
18,O=C(NCC1(N2CCOCC2)CCCCC1)c1cc(=O)[nH]c2ccccc12,inactive: 0.996%
19,COc1cc(C(=O)NCC2(N3CCCCC3)CCCCC2)ccc1OC(F)F,inactive: 3.57%
20,COc1ccc(NC2CCN(C(=O)OC(C)(C)C)CC2)cc1,inactive: -9.99%
21,CC(C)c1ccc(C(=O)NCC2(N3CCOCC3)CCCCC2)cc1,inactive: 3.49%
22,CN1CCN(CCOC(=O)C(O)(c2ccccc2)c2ccccc2)CC1,inactive: -1.04%
23,CCCCn1nnnc1C(c1cccc2ccccc12)N1CCC(n2c(=O)[nH]c3ccccc32)CC1 (stereo not given),inactive: -12.2%
24,O=C1CCN(Cc2ccccc2)CC1,inactive: 1.4%
25,CC(C)(C)n1nnnc1C(c1ccccc1)N1CCC(n2c(=O)[nH]c3ccccc32)CC1 (stereo not given),inactive: -3.15%
26,CCOc1ccc(C)cc1CN(CCCl)CCCl,inactive: 4.93%
27,CCOC(=O)N1CCC(Nc2ccc(F)cc2)CC1,inactive: -5.37%
28,COc1ccc(NC2CCN(CCc3ccccc3)CC2)c(OC)c1,inactive: -17.9%

row,SMILES,activity change
1,CCCCOc1ccc(C(=O)NCC2(N3CCOCC3)CCCCC2)cc1,inactive: -0.0606%
2,CCCCn1nnnc1C(c1cc2ccccc2o1)N1CCC(n2c(=O)[nH]c3ccccc32)CC1 (stereo not given),inactive: -7.02%
3,O=P1(N(CCCl)CCCl)SCCCS1,inactive: 4.67%
4,O=C(NCC1(N2CCCCC2)CCCCC1)c1ccc(F)cc1,inactive: 4.04%
5,O=c1[nH]c2ccccc2n1C1CCN(C(c2ccccc2)c2nnnn2C2CCCCC2)CC1 (stereo not given),inactive: 4.66%
6,CCOC(=O)N1CCC(Nc2cccc(C)c2)CC1,inactive: -0.147%
7,COc1cc(C(=O)NCC2(N(C)C)CCCCC2)ccc1OC(F)F,inactive: -15.1%
8,O=c1[nH]c2ccccc2n1C1CCN(C(c2cccc3ccccc23)c2nnnn2C2CCCC2)CC1 (stereo not given),inactive: -13.1%
9,COc1ccc(C(=O)NCC2(N3CCCCC3)CCCCC2)c(OC)c1OC,inactive: -1.03%
10,CCC(c1nnnn1C1CCCC1)N1CCC(n2c(=O)[nH]c3ccccc32)CC1 (stereo not given),inactive: 0.381%
11,COc1ccc(C(=O)NCC2(N3CCCCC3)CCCCC2)cc1,inactive: -13.8%
12,CCCCn1nnnc1C(CC)N1CCC(n2c(=O)[nH]c3ccccc32)CC1 (stereo not given),inactive: -0.809%
13,O=C(NCC1(N2CCCCC2)CCCCC1)c1cccs1,inactive: -4.31%
14,CCCCn1nnnc1C(c1cccs1)N1CCC(n2c(=O)[nH]c3ccccc32)CC1 (stereo not given),inactive: -24%
15,O=C(NCC1(N2CCCCC2)CCCCC1)c1ccc(=O)[nH]c1,inactive: -1.47%
16,Cc1cccc(NC2(C#N)CCN(Cc3ccccc3)CC2)c1,inactive: 6.66%
17,CSc1ccccc1C(=O)NCC1(N2CCCCC2)CCCCC1,inactive: -0.995%
18,Cc1cc(C)cc(N(C(=O)c2ccccc2)C2CCN(C(=O)OC(C)(C)C)CC2)c1,inactive: 2.34%
19,O=C(NCC1(N2CCCCC2)CCCCC1)c1ccc(Cl)nc1,inactive: 12.7%
20,O=c1[nH]c2ccccc2n1C1CCN(C(c2ccccc2OC(F)(F)F)c2nnnn2C2CCCCC2)CC1 (stereo not given),inactive: 2.28%
21,O=C(NCC1(N2CCOCC2)CCCCC1)c1cc2ccccc2o1,inactive: 0%
22,COc1ccc(Cl)cc1C(=O)NCC1(N2CCOCC2)CCCCC1,inactive: 0%
23,O=C1C(O)=C([N+](=O)[O-])C(=O)C(O)=C1[N+](=O)[O-],inactive: -13.6%
24,O=C(NCC1(N2CCCCC2)CCCCC1)c1ccc(Cl)s1,inactive: 1.38%
25,O=c1[nH]c2ccccc2n1C1CCN(C(c2cc3ccccc3o2)c2nnnn2C2CCCCC2)CC1 (stereo not given),inactive: -3.04%
26,O=C(OC1CN2CCC1CC2)C1c2ccccc2Oc2ccccc21 (stereo not given),inactive: -12.7%
27,CCCCn1nnnc1C(c1ccc(OC)cc1)N1CCC(n2c(=O)[nH]c3ccccc32)CC1 (stereo not given),inactive: -7.33%
